One data set relates to K. pneumoniae. The experiment in a line: MIC, agar dilution method, ESKAPE strains. Type of data set: cell-based, Klebsiella pneumoniae. (In general: In agar dilution, organisms are placed on agar that contains the substance at set levels.)
The test system of a further data set is E. coli. The experiment in a line: MIC, agar dilution method, ESKAPE strains. Type of data set: cell-based, Escherichia coli.

From paper PMC11489056, “Molecular mechanism of a triazole-containing inhibitor of Mycobacterium tuberculosis DNA gyrase” (iScience, 2024) come the findings set out here.

The structures appear in SMILES notation.

Consider `COc1ccc2nccc(-n3cc(CCNCc4ccc5c(c4)NC(=O)CS5)nn3)c2n1` [BDM71403 (10a)], for which the “Ciprofloxacin MIC/BDM71403 MIC” value was > 8 µg/mL in the data set with K. pneumoniae (K. pneumoniae 10270, VIM); 0.25 µg/mL in the data set with K. pneumoniae (K. pneumoniae 10272, 0XA-48); 16 µg/mL in the data set on K. pneumoniae (K. pneumoniae 10277, KPC-2); 16 µg/mL in the data set with E. coli (E. coli 9003, BLSE); 32 µg/mL in the data set on E. coli (E. coli 10269, NDM-1); > 32 µg/mL in the data set on E. coli (E. coli 10273, KPC-2). Besides, the “Ciprofloxacin MIC/BDM71403 MIC” value with E. coli (E. coli 10385, NDM-1) is given as > 533 µg/mL; in the data set with E. coli (E. coli 10386, NDM-1) it was > 32 µg/mL. The “MIC improvement over FQs” value with E. coli is on record as 32 fold.
